Anti-infective test results gathered from many reports (values: NIAID ChemDB through PubChem).

All rows: whole-cell or culture tests; species: Hepatitis C virus; measure: EC50

a–b is a range or a potency band.

structure | mutations | read by | cell line | strain or isolate | value
CC(=O)N1c2cccc(O)c2NC2=C(C(=O)CC(C)(C)C2)C1c1ccc(OCc2cccc(N)c2)cc1Cl |  | luciferase / reporter gene / replicon |  | 1b | 10.4 µM
CC(C)N(C(=O)c1ccc(Cl)cc1F)c1cc(-c2ccc(-c3cn4ccccc4n3)cc2)sc1C(=O)O |  | luciferase / replicon |  | 1b | 0.1–0.5 µM
NC(=S)Nc1cccc(OCCCCCCCCOc2cccc3ccccc23)c1 |  | reporter gene / fluorescence | Ava5-EG(delta4AB)SEAP |  | 0.001–1 µM
Cc1cc(Br)ccc1C(=O)N(c1cc(-c2ccc(-c3cc4ncccn4n3)cc2)sc1C(=O)O)C(C)C |  | luciferase / replicon |  | 1b | 0.05–0.1 µM
CCCCCCCCOc1ccc(N(C(=O)C(=O)OC)c2nc(-c3ccc(Cl)s3)cs2)cc1 |  |  |  |  | <1 µM
COC(=O)/C=C/c1ccc(NC(=O)C2(NC(=O)c3ccc4c(C5CCCCC5)c5n(c4c3)CCOc3cccnc3-5)CCCC2)cc1 |  | replicon | Huh7 |  | 0.01–1 µM
NC(=S)Nc1cccc(NCCCCc2ccccc2)c1 |  | reporter gene / fluorescence | Ava5-EG(delta4AB)SEAP |  | 0.001–1 µM
C/C=N/N(c1ccc(OCCCCCCCC)c(C(F)(F)F)c1)c1nc(-c2cccnc2)c(F)s1 |  |  |  |  | >10 µM
NC(=S)Nc1cccc(OCCCCCCc2ccccc2)c1 |  | reporter gene / fluorescence | Ava5-EG(delta4AB)SEAP |  | 0.001–1 µM
CC(=O)N1c2cccc(O)c2NC2=C(C(=O)CC(C)(C)C2)C1c1ccc(OCc2ccccc2Cl)cc1Cl |  | luciferase / reporter gene / replicon |  | 1b | 2.12 µM
NC(=S)Nc1cccc(NCCCCCc2ccccc2)c1 |  | reporter gene / fluorescence | Ava5-EG(delta4AB)SEAP |  | 0.001–1 µM
COc1ccc(N(C(N)=O)c2nc(-c3ccc(F)cc3)cs2)cc1C(F)(F)F |  |  |  |  | <1 µM
NC(=S)Nc1cccc(OCCCCCc2cccc3ccccc23)c1 |  | reporter gene / fluorescence | Ava5-EG(delta4AB)SEAP |  | 0.001–1 µM
COC(=O)N[C@H](C(=O)N1CCCC1c1ncc(-c2ccc(-c3ccc(-c4cnc([C@@H]5CC(C)CN5C(=O)[C@@H](NC(=O)CO)C(C)C)[nH]4)cc3)cc2)[nH]1)C(C)C | Y93N | luciferase | ET | 1b | 0.00013 µM
O=C(N[C@@H](C(=O)N1CCC[C@H]1c1ncc(-c2ccc(-c3ccc(-c4cnc([C@@H]5CCCN5C(=O)[C@H](NC(=O)C5CC5)c5ccccc5)s4)cc3)cc2)s1)c1ccccc1)C1CC1 | Y93H+V153M+M202L+M265V | luciferase / reporter gene | Huh7.5 | genotype 1b | 0.008736 µM
COCCN(C(=O)c1ccc(Cl)cc1Cl)c1cc(-c2ccc(-c3cc4ncccn4n3)cc2)sc1C(=O)O |  | luciferase / replicon |  | 1a | 0.01–0.05 µM
Cn1cnc(S(=O)(=O)NC(=O)c2ccc3c(C4CCCCC4)c4n(c3c2)CC=Cc2ccccc2-4)c1 |  | replicon | Huh7 |  | >10 µM
CCCCOc1ccc(N(C(N)=O)c2nc(-c3ccncc3)cs2)cc1C(F)(F)F |  |  |  |  | <1 µM
CC1(C)CC(=O)C2=C(C1)Nc1c(O)cccc1N(C(=O)CN1CCOCC1)C2c1ccc(OCc2ccccc2)cc1F |  | luciferase / reporter gene / replicon |  | 1b | 0.88 µM
CC(C)N(C(=O)c1ccc(C(F)(F)F)cc1F)c1cc(-c2ccc(-c3cc4ncccn4n3)cc2)sc1C(=O)O |  | luciferase / replicon |  | 1a | 0.1–0.5 µM
O=C(O)c1ccc2c(C3CCCCC3)c3n(c2c1)CC(C(=O)N1CCOCC1)Cc1cccnc1-3 |  | replicon | Huh7 |  | 1–10 µM
CCCCCCCCCc1ccc(N(C(=O)OCCOP(=O)(O)O)c2nc(-c3cccnc3)c(F)s2)cc1C(F)(F)F |  |  |  |  | <1 µM
CC1(C)CC(=O)C2=C(C1)Nc1c(O)cccc1N(C(=O)NCc1ccoc1)C2c1ccc(Cl)cc1Cl |  | luciferase / reporter gene / replicon |  | 1b | 7.28 µM
CC(C)N(C(=O)c1ccc(Cl)cc1Cl)c1cc(-c2ccc(-c3cc4ncccn4n3)cc2)sc1C(=O)O |  | luciferase / replicon |  | 1b | 0.01–0.05 µM
CCCCCCCCOc1ccc(N(C(=O)CCC(=O)O)c2nc(-c3cccnc3)c(F)s2)cc1C(F)(F)F |  |  |  |  | <1 µM
NC(=S)Nc1cccc(OCCCCCOc2ccc3ccccc3c2)c1 |  | reporter gene / fluorescence | Ava5-EG(delta4AB)SEAP |  | 0.001–1 µM
CN(C)S(=O)(=O)NC(=O)c1ccc2c(C3CCCCC3)c3n(c2c1)CC(=O)Nc1ccccc1-3 |  | replicon | Huh7 |  | 0.01–1 µM
CN(C)C(=O)COC(=O)N1c2cccc(O)c2NC2=C(C(=O)CC(C)(C)C2)C1c1ccc(OCc2ccccc2)cc1Cl |  | luciferase / reporter gene / replicon |  | 1b | 3.73 µM
CCCCCOc1ccc(N(C(=O)C(=O)OC)c2nc(-c3ccc(F)cc3)cs2)cc1C(F)(F)F |  |  |  |  | <1 µM
CCCC1(C)CC(=O)C2=C(C1)Nc1c(O)cccc1N(C(=O)C(C)C)C2c1ccc(OCc2ccccc2)cc1F |  | luciferase / reporter gene / replicon |  | 1b | 0.66 µM
CC(C)N(C(=O)c1ccc(Cl)cc1Cl)c1cc(-c2ccc(-c3cn4ccccc4n3)cc2)sc1C(=O)O |  | replicon / ELISA |  | 1a | 0.05–0.1 µM
CC1(C)CC(=O)C2=C(C1)Nc1c(O)cccc1NC2c1ccsc1 |  | luciferase / reporter gene / replicon |  | 1b | >10 µM
COc1c(-c2ccc3cc(NS(C)(=O)=O)ccc3c2)cc(-n2ccc(=O)[nH]c2=O)cc1C(C)(C)C | Y448C | luciferase | Huh7 | genotype 1a H77 | 0.902 µM

Repeating the final 2 entries:

structure,mutations,read by,cell line,strain or isolate,value
CC1(C)CC(=O)C2=C(C1)Nc1c(O)cccc1NC2c1ccsc1,,luciferase / reporter gene / replicon,,1b,>10 µM
COc1c(-c2ccc3cc(NS(C)(=O)=O)ccc3c2)cc(-n2ccc(=O)[nH]c2=O)cc1C(C)(C)C,Y448C,luciferase,Huh7,genotype 1a H77,0.902 µM

Lines come from different laboratories, so protocols vary. Blank or dashed fields: not listed here. ECn is the concentration giving n% inhibition of infection, replication or growth.